Drawing on ChEMBL document CHEMBL5321277, “Discovery and Mechanism Study of SARS-CoV-2 3C-like Protease Inhibitors with a New Reactive Group” (J Med Chem, 2023), this text covers Kobs for one compound.

This experiment has as its target Replicase polyprotein 1ab (Severe acute respiratory syndrome coronavirus 2) (UniProt P0DTD1). The experiment is described as follows: Inhibition of N-terminal His6-tagged recombinant full length SARS-CoV-2 3CLpro expressed in Escherichia coli BL21(DE3) assessed as Kobs, ratio of Kinact/Ki using MCA-AVLQSGFR-Lys(Dnp)-Lys-NH2 as fluorogenic substrate incubated for 3 hrs by FRET assay.

In the case of `N#CSCC(=O)N1c2ccccc2CCc2ccc(Cl)cc21`, the Kobs is 1130 M⁻¹ s⁻¹.
